Laboratory results reported in the supplement of paper PMC11451515.

How the values were obtained:
Settings in all cases: 48 h
SEM cells [1] = assay: cell viability relative to DMSO control; higher = less cytotoxic
Summary of the method: (§1)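 Leukemia cells (NOMO1 or SEM, 500 cells/well; P12-Ichikawa, 1000 cells/well) were seeded in 5 μl in 1536-well plates after at least four passages of adaptation to each medium. They received library compounds in DMSO by pin dosing, 11 threefold points from 47 μM to 0.79 nM. Luminescence with CellTiter-Glo One was read after 48 h at 37°C. Viability is stated per plate relative to DMSO wells, with cell-free wells as background.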

P12-Ichikawa [2] = assay: as above
Summary of the method: as §1

NOMO1 [3] = assay: as above
Summary of the method: as §1

SEM cells [4] = assay: AUC of viability dose-response curve (% viability x log10 dose units); higher = less sensitive
Summary of the method: (§2)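 Library compounds in DMSO were applied for 48 h at 37°C at 11 threefold doses (47 μM to 0.79 nM) to medium-adapted leukemia cells in 1536-well plates holding 500 or 1000 cells/well. Luminescence from CellTiter-Glo One was normalised plate by plate against DMSO and cell-free wells. Area under the curve came from trapezoidal integration of a log-logistic fit, after scaling curves that rose above full viability and discarding those that failed quality control. The fit had four parameters and used log10 doses.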

P12-Ichikawa [5] = assay: as above
Summary of the method: as §2

NOMO1 [6] = assay: as above
Summary of the method: as §2

CCOC(=O)C(=O)CBr
cell viability [%]
Settings | NOMO1 [3] | P12-Ichikawa [2] | SEM cells [1]
HPLM + 10% dialyzed FBS, 0.000781 µM | 105 | 98.7 | 110
HPLM + 10% dialyzed FBS, 0.00234 µM | 101 | 90.9 | 97.7
HPLM + 10% dialyzed FBS, 0.00702 µM | 112 | 101 | 105
HPLM + 10% dialyzed FBS, 0.0211 µM | 99.1 | 91.4 | 99.4
HPLM + 10% dialyzed FBS, 0.0632 µM | 88.8 | 95.2 | 104
HPLM + 10% dialyzed FBS, 0.19 µM | 91.1 | 89.8 | 96.6
HPLM + 10% dialyzed FBS, 0.569 µM | 108 | 91 | 94
HPLM + 10% dialyzed FBS, 1.71 µM | 94 | 89 | 89.9
HPLM + 10% dialyzed FBS, 5.12 µM | 86.9 | 89.1 | 89.2
HPLM + 10% dialyzed FBS, 15.4 µM | 88.5 | 86.1 | 77.7
HPLM + 10% dialyzed FBS, 46.1 µM | 58.8 | 85.7 | 70
RPMI 5 mM glucose + 10% FBS, 0.000781 µM | 95.8 | 85 | 119
RPMI 5 mM glucose + 10% FBS, 0.00234 µM | 99.7 | 94.3 | 120
RPMI 5 mM glucose + 10% FBS, 0.00702 µM | 97.7 | 92.9 | 130
RPMI 5 mM glucose + 10% FBS, 0.0211 µM | 90.9 | 95 | 108
RPMI 5 mM glucose + 10% FBS, 0.0632 µM | 85.4 | 96.4 | 113
RPMI 5 mM glucose + 10% FBS, 0.19 µM | 73.7 | 91.9 | 118
RPMI 5 mM glucose + 10% FBS, 0.569 µM | 90.3 | 87.5 | 118
RPMI 5 mM glucose + 10% FBS, 1.71 µM | 82.6 | 83.2 | 123
RPMI 5 mM glucose + 10% FBS, 5.12 µM | 72.9 | 82.4 | 93.3
RPMI 5 mM glucose + 10% FBS, 15.4 µM | 82.6 | 87.9 | 112
RPMI 5 mM glucose + 10% FBS, 46.1 µM | 57.4 | 71.1 | 82.5
RPMI 5 mM glucose + 10% dialyzed FBS, 0.000781 µM | 89.9 | 87.7 | 93.5
RPMI 5 mM glucose + 10% dialyzed FBS, 0.00234 µM | 94.8 | 90.4 | 89.4
RPMI 5 mM glucose + 10% dialyzed FBS, 0.00702 µM | 98.3 | 90 | 84.5
RPMI 5 mM glucose + 10% dialyzed FBS, 0.0211 µM | 91.7 | 90.3 | 98.7
RPMI 5 mM glucose + 10% dialyzed FBS, 0.0632 µM | 91 | 89.8 | 93.3
RPMI 5 mM glucose + 10% dialyzed FBS, 0.19 µM | 90.9 | 84.6 | 88.6
RPMI 5 mM glucose + 10% dialyzed FBS, 0.569 µM | 86.2 | 83 | 96.2
RPMI 5 mM glucose + 10% dialyzed FBS, 1.71 µM | 78.7 | 81.1 | 95.3
RPMI 5 mM glucose + 10% dialyzed FBS, 5.12 µM | 84.2 | 81.9 | 80.9
RPMI 5 mM glucose + 10% dialyzed FBS, 15.4 µM | 79.9 | 77.8 | 73.6
RPMI 5 mM glucose + 10% dialyzed FBS, 46.1 µM | 57.9 | 67.3 | 64.7

AUC of viability dose-response curve
Settings | NOMO1 [6] | P12-Ichikawa [5] | SEM cells [4]
HPLM + 10% dialyzed FBS | 454 | 437 | 433
RPMI 5 mM glucose + 10% FBS | 404 | 422 | 454
RPMI 5 mM glucose + 10% dialyzed FBS | 414 | 403 | 420
